# Substitutions are numbered along the chain they refer to. “And” between values parts separate entries of the source, which are not always exact repeats. Equal entries are not always repeated.
# B1: mAb10985 (antibody)
# heavy: EVQLVESGGGLVQPGRSLRLSCAASGFTFDDYAMHWVRQAPGKGLEWVSGISWNRGSIGYADSVKGRFTISRDNAKNSLYLQMSSLRAEDTALYYCAKDGERWDSVVVPSARNGMDVWGQGTTVTVSSASTKGPSVFPLAPSSKSTSGGTAALGCLVKDYFPEPVTVSWNSGALTSGVHTFPAVLQSSGLYSLSSVVTVPSSSLGTQTYICNVNHKPSNTKVDKKV[human IgG1 Fc left out here]
# light: QSVLTQPPSVSGAPGQRVTISCTGSSSNIGAGYDVHWYQQLPGTAPKLLIYGNSNRPSGVPDRFSGSKSGTSASLAITGLQAEDEADYYCQSYDSSLSGSYVFGTGTKVTVLGQPKAAPSVTLFPPSSEELQANKATLVCLISDFYPGAVTVAWKADSSPVKAGVETTTPSKQSNNKYAASSYLSLTPEQWKSHRSYSCQVTHEGSTVEKTVAPTECS
# B2: mAb10965 (antibody)
# heavy: EVQLVESGGGLIQPGGSLRLSCAASVFTVSYNYMSWVRQAPGKGLEWVSVIYSGGSTYYADSVKGRFTISRDNSKNTLYLQMNSLRAEDTAVYYCARALPGWGGSFEYFDYWGQGTLVTVSSASTKGPSVFPLAPSSKSTSGGTAALGCLVKDYFPEPVTVSWNSGALTSGVHTFPAVLQSSGLYSLSSVVTVPSSSLGTQTYICNVNHKPSNTKVDKKV[human IgG1 Fc left out here]
# light: [about 100 residues left out here][about 100 residues left out here]
# B3: mAb10954 (antibody)
# heavy: EVQLVESGGGLVQPGGSLRLSCAASGITVSSNYMSWVRQAPGKGLEWVSLIYSGGSTYYADSVKGRFTISRDNSKNTLYLQMNSLRVEDTAVYYCARDHGMAAAGYNYWGQGTLVTVSSASTKGPSVFPLAPSSKSTSGGTAALGCLVKDYFPEPVTVSWNSGALTSGVHTFPAVLQSSGLYSLSSVVTVPSSSLGTQTYICNVNHKPSNTKVDKKV[human IgG1 Fc left out here]
# light: DIQMTQSPSSLSASVGDRVTITCQASQDINKYLNWYQQKPGKAPKLLIYDASNLETGVPSRFSGSGSGTDFTFTINSLQPEDFATYFCQQYDNLPPAFGQGTKVEIKRTVAAPSVFIFPPSDEQLKSGTASVVCLLNNFYPREAKVQWKVDNALQSGNSQESVTEQDSKDSTYSLSSTLTLSKADYEKHKVYACEVTHQGLSSPVTKSFNRGEC
# B4: mAb10935 (antibody)
# heavy: EVQLVESGGGLVQPGGSLRLSCAASGFTVSSNYMSWVRQAPGKGLEWVSLIYSGGSTYYADSVKGRFTISRHNSKNTLYLQMNSLRSEDTAVYYCARVPLGDYYYGMDVWGQGTTVTVSSASTKGPSVFPLAPSSKSTSGGTAALGCLVKDYFPEPVTVSWNSGALTSGVHTFPAVLQSSGLYSLSSVVTVPSSSLGTQTYICNVNHKPSNTKVDKKV[human IgG1 Fc left out here]
# light: B3 light with N76S, F83I, F87Y, Y91S, P96L, A97T, Q100G
# B5: mAb10930 (antibody)
# heavy: EVQLVESGGGLVQPGRSLRLSCAASGFTFDDYAMYWVRQAPGKGLEWVSGISWNSGSIGYADSVKGRFTISRDNAKNSLYLQMNSLRAADTALYYCAKDKDWNSRGYYYYGMDVWGQGTTVTVSSASTKGPSVFPLAPSSKSTSGGTAALGCLVKDYFPEPVTVSWNSGALTSGVHTFPAVLQSSGLYSLSSVVTVPSSSLGTQTYICNVNHKPSNTKVDKKV[human IgG1 Fc left out here]
# light: [about 100 residues left out here][about 100 residues left out here]
# B6: mAb10984 (antibody)
# heavy: EVQLVESGGGLVQPGGSLRLSCAASGLTVNRNYMSWVRQAPGKGLEWVSLIYSGGSTYYADSVKGRFTISRDNSKNTLYLQMNSLRLEDTAVYYCARGELGIPYGMDVWGQGTTVTVSSASTKGPSVFPLAPSSKSTSGGTAALGCLVKDYFPEPVTVSWNSGALTSGVHTFPAVLQSSGLYSLSSVVTVPSSSLGTQTYICNVNHKPSNTKVDKKV[human IgG1 Fc left out here]
# light: QSVLTQPPSVSAAPGQKVTISCSGSSSNIGNNYVSWYQQLPGTAPKLLIYDNNKRPSGIPDRFSGSKSGTSATLGITGLQTGDEADYYCGTWDSSLSAGVFGGGTKLTVLGQPKAAPSVTLFPPSSEELQANKATLVCLISDFYPGAVTVAWKADSSPVKAGVETTTPSKQSNNKYAASSYLSLTPEQWKSHRSYSCQVTHEGSTVEKTVAPTECS
# B7: mAb10998 (antibody)
# heavy: EVQLVESGGGLVHPGGSLRLSCAASGLTVSSNYMSWVRQAPGKGLEWVSVIYSGGSTYYADSVKGRFTISRHNSKNTLFLQMNSLRAEDTAVYYCARDRPITGTTLDVWGQGTTVTVSSASTKGPSVFPLAPSSKSTSGGTAALGCLVKDYFPEPVTVSWNSGALTSGVHTFPAVLQSSGLYSLSSVVTVPSSSLGTQTYICNVNHKPSNTKVDKKV[human IgG1 Fc left out here]
# light: DIQMTQSPSSLFASVGDRVTITCRASQSISSYLNWYQQKPGKAPKLLIYAASSLQSGVPSRFSGSGSGTDFTLTISSLQPEDFAFYYCQQTYSTPPITFGQGTRLEIKRTVAAPSVFIFPPSDEQLKSGTASVVCLLNNFYPREAKVQWKVDNALQSGNSQESVTEQDSKDSTYSLSSTLTLSKADYEKHKVYACEVTHQGLSSPVTKSFNRGEC
# B8: mAb11004 (antibody)
# heavy: QVQLVESGGGVVQPGRSLRLSCVASGFTFSIYGMDWVRQAPGKGLEWVAVISYDGSNKYYADSVKGRFTISRDNSKNTLYLQMNSLRPEDTAVYYCAKDREAAADAFDIWGQGTMVTVSSASTKGPSVFPLAPSSKSTSGGTAALGCLVKDYFPEPVTVSWNSGALTSGVHTFPAVLQSSGLYSLSSVVTVPSSSLGTQTYICNVNHKPSNTKVDKKV[human IgG1 Fc left out here]
# light: DIQMTQSPSSVSASVGDRVTITCRASQGISSWLAWYQQKPGKAPKLLIYAASSLHSGVPSRFSGSGSGTDFTLTISSLQPEDFATYYCQQANSFRLTFGGGTKVEIKRTVAAPSVFIFPPSDEQLKSGTASVVCLLNNFYPREAKVQWKVDNALQSGNSQESVTEQDSKDSTYSLSSTLTLSKADYEKHKVYACEVTHQGLSSPVTKSFNRGEC
# B9: mAb11006 (antibody)
# heavy: EVQLVESGGGLVQPGGSLRLSCAASGFIVSRNYMSWVRQAPGKGLEWVSVIYSGGSTFYADSVKGRFTISRHNSKNTLYLQMNSLKAEDTAVYYCARELRGYFDYWGQGTLVTVSSASTKGPSVFPLAPSSKSTSGGTAALGCLVKDYFPEPVTVSWNSGALTSGVHTFPAVLQSSGLYSLSSVVTVPSSSLGTQTYICNVNHKPSNTKVDKKV[human IgG1 Fc left out here]
# light: DIQLTQSPSFLSASVGDRVTITCWASQGISSYLAWYQQKPGKAPKLLIYAASTLQSGVPSRFSGSGSGTEFTLTISSLQPEDFATYYCQLLNSYPYTFGQGTKLEIKRTVAAPSVFIFPPSDEQLKSGTASVVCLLNNFYPREAKVQWKVDNALQSGNSQESVTEQDSKDSTYSLSSTLTLSKADYEKHKVYACEVTHQGLSSPVTKSFNRGEC
# B10: mAb11008 (antibody)
# heavy: EVQLVESGGGLVQPGGSLRLSCAASGFTVSSNYMTWVRQAPGKGLEWVSVIYSGGSTFYADSVKGRFTISRHNSENTLYLQMNSLRAEDTAVYYCARDLAAAGTDYWGQGALVTVSSASTKGPSVFPLAPSSKSTSGGTAALGCLVKDYFPEPVTVSWNSGALTSGVHTFPAVLQSSGLYSLSSVVTVPSSSLGTQTYICNVNHKPSNTKVDKKV[human IgG1 Fc left out here]
# light: B9 light with E81D, L90H, P95L
# B11: mAb11010 (antibody)
# heavy: QVQLVESGGGVVQPGRSLRLSCAASGFTFSSYGMHWVRQAPGKGLEWVAVISYDGSYKYYADSVKGRFTISRDNSKNTLYLQMNSLRAEDTAVYYCAIDGGTVTTIFDYWGQGTLVTVSSASTKGPSVFPLAPSSKSTSGGTAALGCLVKDYFPEPVTVSWNSGALTSGVHTFPAVLQSSGLYSLSSVVTVPSSSLGTQTYICNVNHKPSNTKVDKKV[human IgG1 Fc left out here]
# light: [about 100 residues left out here][about 120 residues left out here]
# B12: mAb10989 (antibody)
# heavy: QVQLVQSGAEVKKPGASVKVSCKASGYIFTGYYMHWVRQAPGQGLEWMGWINPNSGGANYAQKFQGRVTLTRDTSITTVYMELSRLRFDDTAVYYCARGSRYDWNQNNWFDPWGQGTLVTVSSASTKGPSVFPLAPSSKSTSGGTAALGCLVKDYFPEPVTVSWNSGALTSGVHTFPAVLQSSGLYSLSSVVTVPSSSLGTQTYICNVNHKPSNTKVDKKV[human IgG1 Fc left out here]
# light: QSALTQPASVSGSPGQSITISCTGTSSDVGTYNYVSWYQQHPGKAPKLMIFDVSNRPSGVSDRFSGSKSGNTASLTISGLQAEDEADYYCSSFTTSSTVVFGGGTKLTVLGQPKAAPSVTLFPPSSEELQANKATLVCLISDFYPGAVTVAWKADSSPVKAGVETTTPSKQSNNKYAASSYLSLTPEQWKSHRSYSCQVTHEGSTVEKTVAPTECS
# Target: SARS-CoV-2 Spike Protein (RBD)([…]).mmH (SARS-CoV-2)
# Assay: Luminex bead assay, supernatant on antigen microspheres
# Conditions: remark: other sources report otherwise
row,Binder,Binding signal (MFI)
1,B1,30200
2,B2,30800
3,B3,30400

# Target: T1, Bt-SARS-CoV-2 Spike Protein (RBD)([…]).mFc (SARS-CoV-2)
# Assay: Luminex bead assay, antibody supernatant, biotinylated antigen on microspheres
# Conditions: remark: other sources report otherwise
row,Binder,Binding signal (MFI)
1,B4,19300
2,B5,16600
3,B6,17100

# Target: SARS-CoV-2 Spike Protein (RBD)([…]).mmH (SARS-CoV-2)
# Assay: Luminex bead assay, supernatant on antigen microspheres
# Conditions: remark: other sources report otherwise
# Remark: another data set of the same source
row,Binder,Binding signal (MFI)
1,B1,27900
2,B2,26900
3,B3,28300

# Target: T2, SARS-COV-2-S RBD extracellular domain expressed with a C-terminal myc-myc-hexahistidine (SARS-COV-2 RBD-MMH) (SARS-CoV-2)
# Assay: not given
# Conditions: remark: other sources report otherwise
row,Binder,t½
1,B7,0.4 min
2,B8,0.8 min and 0.6 min
3,B9,7.9 min and 5.8 min
4,B10,8.7 min and 9 min
5,B11,3 min and 1.5 min

# Target: T1, Bt-SARS-CoV-2 Spike Protein …
# Assay: not given
# Conditions: remark: other sources report otherwise
row,Binder,Binding signal (MFI)
1,B1,15500
2,B12,11200

# Target: SARS-CoV-2 Spike Protein (RBD)([…]).mmH (SARS-CoV-2)
# Assay: not given
# Conditions: remark: other sources report otherwise
row,Binder,Binding signal (MFI)
1,B4,34900 MFI and 32600 MFI
2,B5,25100 MFI
3,B6,27900 MFI and 26200 MFI

# Target: Bt-SARS-CoV-2 Spike Protein (RBD)([…]).hFc (SARS-CoV-2)
# Assay: not given
# Conditions: remark: other sources report otherwise
row,Binder,Binding signal (MFI)
1,B1,24800
2,B12,16100

# Target: T2, SARS-COV-2-S RBD extracellular domain …
# Assay: not given
# Conditions: remark: other sources report otherwise
# Remark: another data set of the same source
row,Binder,t½
1,B7,0.4 min and 0.5 min
2,B8,0.8 min and 0.4 min
3,B9,7.9 min and 5.5 min
4,B10,8.7 min and 10.5 min
5,B11,3 min and 1.6 min
6,B4,0.4 min and 0.9 min
7,B5,1 min
